From patent US11925194B2, “Antimicrobially active mixtures” (SYMRISE AG, priority 2017, dated 2024)

Assay: Sensory effect of flavouring agents in still water with GRA and cherry flavouring
Conditions: citric acid, 200 mg/kg GRA (Ex. 1), 0.1 g/100 g cherry flavouring
[1] = dose 10 mg/kg added to still water with sweeteners

Row | SMILES | Sensory effect compared to basis [1] | other results
1 | COc1ccc([C@@H]2CC(=O)c3c(O)cc(O)cc3O2)cc1O [Hesperitin] | – | Sensory effect compared to basis (dose 25 mg/kg added to still water with sweeteners): Stronger like juicy cherry
2 | COc1cc(C[C@H]2COC(=O)[C@@H]2Cc2ccc(O)c(OC)c2)ccc1O [Matairesinol] | More fresh, more citric, less lingering | –
3 | CCCCC/C=C/C=C/C(=O)NCC(C)C [Pellitorin] | More intensive cherry | –
4 | COc1cc(C(=O)O)ccc1O [Vanillic acid] | – | Sensory effect compared to basis (dose 100 mg/kg added to still water with sweeteners): More balanced, less sour
